Compound potency records, mixed from different reports. Data source: NIAID ChemDB in PubChem.

Shared fields: growth or infection tests; species: Mycobacterium avium complex; measure: MIC90

A number after MIC or MFC names an inhibition level or a share of isolates. Neighbouring rows are from separate reports. Two numbers with a dash give a range or band.

{"structure": "CC(O)[C@H]1C(=O)N2C(C([O-])O)=C(SC3Cn4cnc[n+]4C3)[C@H](C)[C@H]12", "strain": "24 strains", "result": "32 µg/mL"}
{"structure": "CO[C@H]1/C=C/O[C@@]2(C)Oc3c(C)c(O)c4c(O)c(c(/C=N/N5CCN(C)CC5)c(O)c4c3C2=O)NC(=O)/C(C)=C\\C=C\\[C@H](C)[C@H](O)[C@@H](C)[C@@H](O)[C@@H](C)[C@H](OC(C)=O)[C@@H]1C", "strain": "20 strains", "result": "40–80 µg/mL"}
{"structure": "NC1CCN(c2nc3c(cc2F)c(=O)c(C(=O)O)cn3-c2ccc(F)cc2F)C1", "strain": "25 isolates", "result": ">8 µg/mL"}
{"structure": "O=C(O)c1cn(C2CC2)c2c(F)c(N3CCNCC3)c(F)cc2c1=O", "result": "4 µg/mL"}
{"structure": "CO[C@H]1/C=C/O[C@@]2(C)Oc3c(C)c(O)c4c(O)c(c(/C=N/N5CCN(C)CC5)c(O)c4c3C2=O)NC(=O)/C(C)=C\\C=C\\[C@H](C)[C@H](O)[C@@H](C)[C@@H](O)[C@@H](C)[C@H](OC(C)=O)[C@@H]1C", "strain": "40 isolates", "result": "25 µg/mL"}
{"structure": "NC[C@@H]1O[C@H](O[C@H]2[C@@H](O)[C@H](O[C@@H]3[C@@H](O)[C@H](N)C[C@H](N)[C@H]3O[C@H]3O[C@H](CO)[C@@H](O)[C@H](O)[C@H]3N)O[C@@H]2CO)[C@H](N)[C@@H](O)[C@@H]1O", "strain": "32 isolates", "result": "16 µg/mL"}
{"structure": "O=C(O)c1cn(C2CC2)c2c(F)c(N3CCC(NC4CC4)C3)c(F)cc2c1=O", "result": "8 µg/mL"}
{"structure": "CCn1cc(C(=O)O)c(=O)c2cc(F)c(N3CCN(C)CC3)cc21", "strain": "17 isolates", "result": ">16 µg/mL"}
{"structure": "CCC1CN(c2cc3c(cc2F)c(=O)c(C(=O)O)cn3-c2ccc(F)cc2F)CCN1", "strain": "14 strains", "result": "32 µg/mL"}
{"structure": "C[C@@H]1CN(c2c(F)c(N)c3c(=O)c(C(=O)O)cn(C4CC4)c3c2F)C[C@H](C)N1", "result": "4–16 µg/mL"}
{"structure": "Cc1c(F)c(N2CCNC(C)C2)c(C(F)(F)F)c2c1c(=O)c(C(=O)O)cn2C1CC1", "result": "16 µg/mL"}
{"structure": "CC[C@H]1OC(=O)[C@H](C)[C@@H](O[C@H]2C[C@@](C)(OC)[C@@H](O)[C@H](C)O2)[C@H](C)[C@@H](O[C@@H]2O[C@H](C)C[C@H](N(C)C)[C@H]2O)[C@](C)(O)C[C@@H](C)CN(C)[C@H](C)[C@@H](O)[C@]1(C)O", "strain": "15 strains", "result": "25 µg/mL"}
{"structure": "NC1[C@H]2CN(c3nc4c(cc3F)c(=O)c(C(=O)O)cn4-c3ccc(F)cc3F)C[C@@H]12", "strain": "22 strains", "result": ">256 µg/mL"}
{"structure": "Cc1noc(NS(=O)(=O)c2ccc(N)cc2)c1C", "strain": "20 strains", "result": "20 µg/mL"}
{"structure": "CC[C@H]1OC(=O)[C@H](C)[C@@H](O[C@H]2C[C@@](C)(OC)[C@@H](O)[C@H](C)O2)[C@H](C)[C@@H](O[C@@H]2O[C@H](C)C[C@H](N(C)C)[C@H]2O)[C@](C)(OC)C[C@@H](C)C(=O)[C@H](C)[C@@H](O)[C@]1(C)O", "strain": "37 strains", "result": "2 µg/mL"}
{"structure": "CC[C@H]1OC(=O)[C@H](C)[C@@H](O[C@H]2C[C@@](C)(OC)[C@@H](O)[C@H](C)O2)[C@H](C)[C@@H](O[C@@H]2O[C@H](C)C[C@H](N(C)C)[C@H]2O)[C@](C)(OC)C[C@@H](C)C(=O)[C@H](C)[C@@H](O)[C@]1(C)O", "strain": "20 strains", "result": "25 µg/mL"}
{"structure": "NCC[C@H](O)C(=O)N[C@@H]1C[C@H](N)[C@@H](O[C@H]2O[C@H](CN)[C@@H](O)[C@H](O)[C@H]2O)[C@H](O)[C@H]1O[C@H]1O[C@H](CO)[C@@H](O)[C@H](N)[C@H]1O", "strain": "37 strains", "result": "8 µg/mL"}
{"structure": "CO[C@H]1/C=C/O[C@@]2(C)Oc3c(C)c(O)c4c(=O)c(c5oc6cc(N7CCN(CC(C)C)CC7)cc(=O)c6nc5c4c3=C2O)NC(=O)/C(C)=C\\C=C\\[C@H](C)[C@H](O)[C@@H](C)[C@@H](O)[C@@H](C)[C@H](OC(C)=O)[C@@H]1C", "strain": "20 strains", "result": "0.39 µg/mL"}
{"structure": "CN(C)c1cc(NC(=O)CNC(C)(C)C)c(O)c2c1C[C@H]1C[C@H]3[C@H](N(C)C)C(=O)C(C(N)=O)=C(O)[C@@]3(O)C(=O)C1=C2O", "strain": "11 strains", "result": ">32 µg/mL"}
{"structure": "CC1CN(c2c(F)cc3c(=O)c(C(=O)O)cn(C4CC4)c3c2F)CC(C)N1", "strain": "14 strains", "result": "2 µg/mL"}
{"structure": "CN[C@@H]1[C@@H](O)[C@@H](O[C@@H]2[C@@H](O)[C@H](O[C@H]3O[C@H](CN)CC[C@H]3N)[C@@H](N)C[C@H]2N)OC[C@]1(C)O", "strain": "25 isolates", "result": ">64 µg/mL"}
{"structure": "CNC1CCN(c2c(F)cc3c(=O)c(C(=O)O)cn(C4CC4)c3c2F)C1", "strain": "14 strains", "result": "8 µg/mL"}
{"structure": "COc1ccc2c(c1)c(CC(=O)O)c(C)n2C(=O)c1ccc(Cl)cc1", "strain": "32 isolates", "result": ">128 µg/mL"}
{"structure": "C[C@@H]1CN(c2c(F)c(N)c3c(=O)c(C(=O)O)cn(C4CC4)c3c2F)C[C@H](C)N1", "strain": "12 strains", "result": "1 µg/mL"}
{"structure": "CC[C@H]1OC(=O)[C@H](C)[C@@H](O[C@H]2C[C@@](C)(OC)[C@@H](O)[C@H](C)O2)[C@H](C)[C@@H](O[C@@H]2O[C@H](C)C[C@H](N(C)C)[C@H]2O)[C@](C)(O)C[C@@H](C)CN(C)[C@H](C)[C@@H](O)[C@]1(C)O", "strain": "20 strains", "result": "32 µg/mL"}
{"structure": "C[C@@H]1CN(c2c(F)c(N)c3c(=O)c(C(=O)O)cn(C4CC4)c3c2F)C[C@H](C)N1", "strain": "35 strains", "result": "≤0.5 µg/mL"}
{"structure": "C[C@@H](O)[C@H]1C(=O)N2C(C(=O)O)=C(SCCOC(N)=O)S[C@H]12", "strain": "22 strains", "result": "16 µg/mL"}
{"structure": "Cc1c(N2C[C@@H](N)C3(CC3)C2)c(F)c(N)c2c(=O)c(C(=O)O)cn(C3CC3)c12", "strain": "20 strains", "result": "25 µg/mL"}
{"structure": "O=C(O)c1cn(C2CC2)c2c(F)c(N3CC4C(CO)C4C3)c(F)cc2c1=O", "strain": "14 strains", "result": "32 µg/mL"}
{"structure": "CC(C)(N)C1CCN(c2c(F)cc3c(=O)c(C(=O)O)cn(C4CC4)c3c2F)C1", "result": "16 µg/mL"}
{"structure": "C[C@@H]1CN(c2c(F)c(N)c3c(=O)c(C(=O)O)cn(C4CC4)c3c2F)C[C@H](C)N1", "strain": "37 strains", "result": "16 µg/mL"}
{"structure": "CCC1CCN(c2c(F)cc3c(=O)c(C(=O)O)cn(C4CC4)c3c2F)C1", "strain": "14 strains", "result": "8 µg/mL"}
{"structure": "CO[C@H]1/C=C/O[C@@]2(C)Oc3c(C)c(O)c4c(O)c(c5c(c4c3C2=O)NC2(CCN(CC(C)C)CC2)N=5)=NC(=O)/C(C)=C\\C=C\\[C@H](C)[C@H](O)[C@@H](C)[C@@H](O)[C@@H](C)[C@H](OC(C)=O)[C@@H]1C", "strain": "20 strains", "result": "5 µg/mL"}
{"structure": "CNn1cc(C(=O)O)c(=O)c2cc(F)c(N3CCN(C)CC3)cc21", "strain": "22 strains", "result": "16 µg/mL"}
{"structure": "O=C(O)c1cn(C2CC2)c2c(Cl)c(N3C[C@@H]4CCCN[C@@H]4C3)c(F)cc2c1=O", "result": "8 µg/mL"}
{"structure": "CC1CN(c2c(F)cc3c(=O)c(C(=O)O)cn(C4CC4)c3c2F)C(C)CN1", "strain": "14 strains", "result": "4 µg/mL"}
{"structure": "CCC1CN(c2cc3c(cc2F)c(=O)c(C(=O)O)cn3C2CC2)CCN1", "strain": "14 strains", "result": "4 µg/mL"}
{"structure": "CC[C@H]1OC(=O)[C@H](C)[C@@H](O[C@H]2C[C@@](C)(OC)[C@@H](O)[C@H](C)O2)[C@H](C)[C@@H](O[C@@H]2O[C@H](C)C[C@H](N(C)C)[C@H]2O)[C@](C)(OC)C[C@@H](C)C(=O)[C@H](C)[C@@H](O)[C@]1(C)O", "strain": "28 strains", "result": "4 µg/mL"}
{"structure": "CO[C@H]1/C=C/O[C@@]2(C)Oc3c(C)c(O)c4c(O)c(c(/C=N/N5CCN(C)CC5)c(O)c4c3C2=O)NC(=O)/C(C)=C\\C=C\\[C@H](C)[C@H](O)[C@@H](C)[C@@H](O)[C@@H](C)[C@H](OC(C)=O)[C@@H]1C", "strain": "20 strains", "result": ">8 µg/mL"}
{"structure": "C[C@H]1c2cccc(O)c2C(O)=C2C(=O)[C@]3(O)C(O)=C(C(N)=O)C(=O)[C@@H](N(C)C)[C@@H]3[C@@H](O)[C@@H]21", "strain": "11 strains", "result": ">128 µg/mL"}
{"structure": "O=C(O)c1cn(C2CC2)c2cc(N3CCNCC3)c(F)cc2c1=O", "strain": "32 isolates", "result": "8 µg/mL"}
{"structure": "CO[C@H]1/C=C/O[C@@]2(C)Oc3c(C)c(O)c4c(=O)c(c5oc6cc(N7CCN(CC(C)C)CC7)cc(=O)c6nc5c4c3=C2O)NC(=O)/C(C)=C\\C=C\\[C@H](C)[C@H](O)[C@@H](C)[C@@H](O)[C@@H](C)[C@H](OC(C)=O)[C@@H]1C", "strain": "20 strains", "result": "0.07–0.15 µg/mL"}
{"structure": "CN(C)CC1CCN(c2c(F)cc3c(=O)c(C(=O)O)cn(C4CC4)c3c2F)C1", "strain": "14 strains", "result": "2 µg/mL"}
{"structure": "NNC(=O)c1ccncc1", "strain": "20 strains", "result": "12.5 µg/mL"}
{"structure": "CC1CN(c2c(F)cc3c(=O)c(C(=O)O)cn(C4CC4)c3c2F)CC(C)N1", "result": "2 µg/mL"}
{"structure": "CC1CN(c2cc3c(cc2F)c(=O)c(C(=O)O)cn3-c2ccc(F)cc2F)CC(C)N1", "strain": "14 strains", "result": "8 µg/mL"}
{"structure": "CO[C@H]1/C=C/O[C@@]2(C)Oc3c(C)c(O)c4c(O)c(c5c(c4c3C2=O)NC2(CCN(CC(C)C)CC2)N=5)=NC(=O)/C(C)=C\\C=C\\[C@H](C)[C@H](O)[C@@H](C)[C@@H](O)[C@@H](C)[C@H](OC(C)=O)[C@@H]1C", "strain": "20 strains", "result": "1.6 µg/mL"}
{"structure": "C[C@H]1COc2c(N3CCN(C)CC3)c(F)cc3c(=O)c(C(=O)O)cn1c23", "result": "1–32 µg/mL"}
{"structure": "CN[C@@H]1[C@H](O)[C@H](NC)[C@H]2O[C@@]3(O)C(=O)C[C@@H](C)O[C@H]3O[C@@H]2[C@H]1O", "strain": "25 isolates", "result": ">64 µg/mL"}
{"structure": "O=C(O)c1cn(C2CC2)c2c(F)c(N3CC4CCCC(C3)N4)c(F)cc2c1=O", "result": "8 µg/mL"}
{"structure": "CC[C@H]1OC(=O)[C@H](C)[C@@H](O[C@H]2C[C@@](C)(OC)[C@@H](O)[C@H](C)O2)[C@H](C)[C@@H](O[C@@H]2O[C@H](C)C[C@H](N(C)C)[C@H]2O)[C@](C)(OC)C[C@@H](C)C(=O)[C@H](C)[C@@H](O)[C@]1(C)O", "strain": "20 strains", "result": "4 µg/mL"}

7 of the rows above, restated:

| structure | strain | result |
|---|---|---|
| NNC(=O)c1ccncc1 | 20 strains | 12.5 µg/mL |
| Cc1c(N2C[C@@H](N)C3(CC3)C2)c(F)c(N)c2c(=O)c(C(=O)O)cn(C3CC3)c12 | 20 strains | 25 µg/mL |
| C[C@H]1c2cccc(O)c2C(O)=C2C(=O)[C@]3(O)C(O)=C(C(N)=O)C(=O)[C@@H](N(C)C)[C@@H]3[C@@H](O)[C@@H]21 | 11 strains | >128 µg/mL |
| CO[C@H]1/C=C/O[C@@]2(C)Oc3c(C)c(O)c4c(O)c(c(/C=N/N5CCN(C)CC5)c(O)c4c3C2=O)NC(=O)/C(C)=C\C=C\[C@H](C)[C@H](O)[C@@H](C)[C@@H](O)[C@@H](C)[C@H](OC(C)=O)[C@@H]1C | 40 isolates | 25 µg/mL |
| CNn1cc(C(=O)O)c(=O)c2cc(F)c(N3CCN(C)CC3)cc21 | 22 strains | 16 µg/mL |
| CO[C@H]1/C=C/O[C@@]2(C)Oc3c(C)c(O)c4c(O)c(c(/C=N/N5CCN(C)CC5)c(O)c4c3C2=O)NC(=O)/C(C)=C\C=C\[C@H](C)[C@H](O)[C@@H](C)[C@@H](O)[C@@H](C)[C@H](OC(C)=O)[C@@H]1C | 20 strains | >8 µg/mL |
| O=C(O)c1cn(C2CC2)c2cc(N3CCNCC3)c(F)cc2c1=O | 32 isolates | 8 µg/mL |